According to US8791074:

Target: wild type anthrax toxin protective antigen (WT-PA) (UniProt P13423)

## tissue-type plasminogen activator (tPA)
  in vitro cleavage, Western blot with anti-PA: PA was completely resistant to tPA
